Compound potency records, mixed from different reports. Data source: NIAID ChemDB in PubChem.

Shared fields: tests in culture

Inhibition is in % at the dose shown (toxicity tests: loss of growth or viability). Zone: diameter of growth inhibition. MIC50, MIC90 and the like: level of inhibition, or share of isolates inhibited. ECn is the concentration giving n% inhibition of infection, replication or growth. An empty or dashed field is not shown. Rows are shuffled and stem from different studies. Two numbers with a dash give a range or band.

SMILES | dose | read by | setting | organism | measure | strain or isolate | value
CN(C)c1ccc(O)c2c1C[C@H]1C[C@H]3[C@H](N(C)C)C(=O)C(C(N)=O)=C(O)[C@@]3(O)C(=O)C1=C2O |  |  |  | Mycobacterium avium | Mean MIC | ATCC 25291 | 28 µg/mL
NCC[C@H](O)C(=O)N[C@@H]1C[C@H](N)[C@@H](O[C@H]2O[C@H](CN)[C@@H](O)[C@H](O)[C@H]2O)[C@H](O)[C@H]1O[C@H]1O[C@H](CO)[C@@H](O)[C@H](N)[C@H]1O |  |  |  | Mycobacterium avium complex | MIC | SK32/HIV+ | 8 µg/mL
CN[C@@H]1[C@@H](O[C@H]2O[C@H](CO)[C@@H](N)[C@H](O)[C@H]2O)OC2C[C@@H](N)[C@@H](O[C@H]3[C@H](OC4O[C@H](CN)[C@@H](OCCN)[C@H]4O)[C@@H](O)[C@H](N)C[C@@H]3N)OC2[C@@H]1O |  | broth dilution |  | Mycobacterium abscessus | MIC | L948 | 1 µg/mL
Cc1cc(NS(=O)(=O)c2ccc(NC(=O)Nc3ccc(S(=O)(=O)Nc4cc(C)on4)cc3)cc2)no1 |  | broth dilution / absorbance | 14 d | Mycobacterium kansasii | MIC100 | 235/80 | 2 µM
C[C@@H]1CN(c2nc3c(cc2F)c(=O)c(C(=O)O)cn3C(C)(C)C)C[C@H](C)N1 |  |  |  | Mycobacterium avium complex | MIC90 | 14 strains | 2 µg/mL
NC[C@H]1O[C@H](O[C@H]2[C@H](O)[C@@H](O[C@H]3O[C@H](CO)[C@@H](O)[C@H](N)[C@H]3O)[C@H](N)C[C@@H]2N)[C@H](O)[C@@H](O)[C@@H]1O |  |  |  | Mycobacterium avium intracellulare | MIC | N-499 (HIV-) | 1 µg/mL
Cc1cc(NS(=O)(=O)c2ccc(NC(=O)C(=O)Nc3ccc(S(=O)(=O)Nc4cc(C)on4)cc3)cc2)no1 |  | broth dilution / absorbance | 14 d | Mycobacterium kansasii | MIC100 | 235/80 | 8 µM
C[C@@H]1CN(c2c(F)c(N)c3c(=O)c(C(=O)O)cn(C4CC4)c3c2F)C[C@H](C)N1 |  |  |  | Mycoplasma hominis | MIC90 | 37 strains | 0.063 µg/mL
Cc1nn(-c2ccccc2)c2c1C(c1cn(-c3ccccc3)nc1-c1ccc(Cl)cc1)C1=C(NC(C)(c3cc(O)c(Cl)c(O)c3)NC1=O)O2 |  | agar diffusion / agar |  | Mycobacterium phlei | MIC | NCIM 2240 | 90 µg/mL
CNCC1CCN(c2cc3c(cc2F)c(=O)c(C(=O)O)cn3C(C)(C)C)C1 |  |  |  | Mycobacterium fortuitum | MIC | ATCC 6841 | 0.13 µg/mL
CCCCCCNC(=O)Nc1ccc(S(=O)(=O)Nc2cc(C)on2)cc1 |  | broth dilution / absorbance | 14 d | Mycobacterium kansasii | MIC100 | 6509/96 clinical isolate | 250 µM
CCc1cc(C(N)=S)ccn1 |  |  |  | Mycobacterium avium | Median MIC | ATCC 25291 | >5 µg/mL
Cc1cc(-c2cc3c(cc2F)c(=O)c(C(=O)O)cn3C2CC2)cc(C)n1 |  |  |  | Mycoplasma hominis | MIC90 | 37 strains | 0.004 µg/mL
Cc1nn(-c2ccccc2)c2c1C(c1cn(-c3ccccc3)nc1-c1ccc(Cl)cc1)C1=C(NC(C)(c3cc(O)cc(O)c3)NC1=O)O2 | 1 mg/mL | agar diffusion / agar |  | Mycobacterium phlei | zone | NCIM 2240 | 4.5 mm
C[C@H]1COc2c(N3CCN(C)CC3)c(F)cc3c(=O)c(C(=O)O)cn1c23 |  |  |  | Mycobacterium marinum | MIC50 | 37 clinical isolates | 1 µg/mL
Nc1ccc(C(=O)O)c(O)c1 |  |  |  | Mycobacterium avium | Median MIC | ATCC 25291 | 64 µg/mL
CCCCCNC(=O)Nc1ccc(S(=O)(=O)Nc2cc(C)on2)cc1 |  | broth dilution / absorbance | 21 d | Mycobacterium kansasii | MIC100 | 6509/96 clinical isolate | 500 µM
CN[C@@H]1[C@@H](O[C@H]2O[C@H](CO)[C@@H](N)[C@H](O)[C@H]2O)OC2C[C@@H](N)[C@@H](O[C@H]3[C@H](OC4O[C@H](CNC=O)[C@@H](OCCN)[C@H]4O)[C@@H](O)[C@H](N)C[C@@H]3N)OC2[C@@H]1O |  | broth dilution |  | Mycobacterium abscessus | MIC | L948 | 8 µg/mL
CCN1CCN(c2cc3c(cc2F)c(=O)c(C(=O)O)cn3C2CC2)CC1 |  |  |  | Mycobacterium bovis | MIC | BCG-KD1295 (WILD TYPE) | 0.11 µg/mL
N/C(=N\N=C\c1ccccc1OCc1ccccc1)c1ccccn1 |  |  |  | Mycobacterium fortuitum | EC50 |  | >100 µM
CN[C@@H]1[C@H](O[C@H]2[C@H](O[C@H]3[C@H](O)[C@@H](O)[C@H](N=C(N)N)[C@@H](O)[C@@H]3N=C(N)N)O[C@@H](C)[C@]2(O)C=O)O[C@@H](CO)[C@H](O)[C@H]1O |  |  |  | Mycobacterium avium | Median MIC | ATCC 25291 | 1.5 µg/mL
CCOc1cc(Cc2cnc(N)nc2N)cc(OCC)c1-n1cccc1 |  |  |  | Mycobacterium ulcerans | MBC | Isolate 5155 | 0.5 µg/mL
CO[C@H]1/C=C/O[C@@]2(C)Oc3c(C)c(O)c4c(O)c(c(/C=N/N5CCN(C)CC5)c(O)c4c3C2=O)NC(=O)/C(C)=C\C=C\[C@H](C)[C@H](O)[C@@H](C)[C@@H](O)[C@@H](C)[C@H](OC(C)=O)[C@@H]1C |  |  |  | Mycobacterium avium | Mean MIC | ATCC 25291 | 6.25 µg/mL
CO[C@H]1/C=C/O[C@@]2(C)Oc3c(C)c(O)c4c(O)c(c(/C=N/N5CCN(C)CC5)c(O)c4c3C2=O)NC(=O)/C(C)=C\C=C\[C@H](C)[C@H](O)[C@@H](C)[C@@H](O)[C@@H](C)[C@H](OC(C)=O)[C@@H]1C | 5 µg/mL |  |  | Mycobacterium avium intracellulare | inhibition | Serovar 8 | 77%
O=Cc1cccc2ccccc12 | 1000 µM |  |  | Mycobacterium fortuitum | inhibition |  | 7.5%
NC(=O)c1c(NC(=O)C2CC2)sc2cc(O)c(Br)cc12 |  | resazurin / absorbance |  | Mycobacterium marinum | MIC | Strain M | >100 µM
CN[C@@H]1[C@@H](O[C@H]2O[C@H](CO)[C@@H](N)[C@H](O)[C@H]2O)OC2C[C@@H](N)[C@@H](O[C@H]3[C@H](OC4O[C@H](CO)[C@@H](OCCO)[C@H]4O)[C@@H](O)[C@H](N)C[C@@H]3N)OC2[C@@H]1O |  | broth dilution |  | Mycobacterium abscessus | MIC | L948 | 32 µg/mL
CN1CC2CC1CN2c1c(F)cc2c(=O)c(C(=O)O)cn(C3CC3)c2c1F |  |  |  | Mycobacterium avium complex | MIC90 | 14 strains | 4 µg/mL
CN[C@@H]1[C@@H](O[C@H]2O[C@H](CO)[C@@H](N)[C@H](O)[C@H]2O)OC2C[C@@H](N)[C@@H](O[C@H]3C[C@@H](O)[C@H](N)C[C@@H]3N)OC2[C@@H]1O |  | broth dilution |  | Mycobacterium abscessus | MIC | L948 | 1 µg/mL
CC(C)N=c1cc2n(-c3ccc(Cl)cc3)c3ccccc3nc-2cc1Nc1ccc(Cl)cc1 |  |  |  | Mycobacterium avium | Median MIC | ATCC 25291 | 0.47 µg/mL
CC[C@@H](CO)NCCN[C@@H](CC)CO |  |  |  | Mycobacterium avium intracellulare | MIC | N-475 (HIV-) | 1 µg/mL
CN[C@@H]1[C@@H](O[C@H]2O[C@H](CO)[C@@H](N)[C@H](O)[C@H]2O)OC2C[C@@H](N)[C@@H](O[C@H]3[C@H](OCCCO)[C@@H](O)[C@H](N)C[C@@H]3N)OC2[C@@H]1O |  | broth dilution |  | Mycobacterium abscessus | MIC | L948 | 8 µg/mL
CNCC1CCN(c2nc3c(cc2F)c(=O)c(C(=O)O)cn3C2CC2)C1 |  |  |  | Mycobacterium fortuitum | MIC | ATCC 6841 | 0.13 µg/mL
CCC1CN(c2cc3c(cc2F)c(=O)c(C(=O)O)cn3C2CC2)CCN1 |  |  |  | Mycobacterium bovis | MIC | BCG-KD1295 (WILD TYPE) | 0.08 µg/mL
COc1cc(Cc2cnc(N)nc2N)cc(OC)c1OC |  |  |  | Mycobacterium ulcerans | MIC | Isolate 8756 | >16 µg/mL
CCN1CCN(c2c(F)cc3c(=O)c(C(=O)O)cn(-c4ccc(F)cc4F)c3c2OC)CC1 |  |  |  | Mycobacterium fortuitum | MIC | ATCC 6841 | 2 µg/mL
N[C@@H]1CONC1=O |  |  |  | Mycobacterium avium | Median MIC | ATCC 25291 | 37.5 µg/mL
CCC1CN(c2c(F)cc3c(=O)c(C(=O)O)cn(C4CC4)c3c2Cl)CCN1 |  |  |  | Mycobacterium avium complex | MIC90 | 14 strains | 4 µg/mL
CNC(=O)Nc1ccc(S(=O)(=O)Nc2cc(C)on2)cc1 |  | broth dilution / absorbance | 7 d | Mycobacterium kansasii | MIC100 | 6509/96 clinical isolate | 8 µM
N/C(=N\N=C\c1ccccn1)c1ccccn1 | 1000 µM |  |  | Mycobacterium fortuitum | inhibition |  | 3.7%
CN[C@@H]1[C@@H](O[C@H]2O[C@H](CO)[C@@H](N)[C@H](O)[C@H]2O)OC2C[C@@H](N)[C@@H](O[C@H]3[C@H](OC4O[C@H](CN)[C@@H](O)[C@H]4O)[C@@H](O)[C@H](N)C[C@@H]3N)OC2[C@@H]1O |  | broth dilution |  | Mycobacterium abscessus | MIC | L948 | 1–2 µg/mL
O=C(O)c1cc(C(F)(F)F)cc2c(=O)nc(N3CCN(CC4CCCCC4)CC3)sc12 |  | resazurin |  | Mycobacterium abscessus | MIC99 | 2005-0524 | >100 µg/mL
CC(C)CN1CCN(c2cc3c(cc2F)c(=O)c(C(=O)O)cn3C(C)(C)C)CC1 |  |  |  | Mycobacterium avium complex | MIC50 | 14 strains | 4 µg/mL
CC1CN(c2c(F)cc3c(=O)c(C(=O)O)cn(C4CC4)c3c2F)CC(C)N1 |  |  |  | Mycobacterium fortuitum | MIC | ATCC 6841 | 0.06 µg/mL
CCC1CN(c2c(F)cc3c(=O)c(C(=O)O)cn(C4CC4)c3c2OC)CCN1 |  |  |  | Mycobacterium bovis | MIC | BCG-CX1 (D94N) | 0.61 µg/mL
Cc1nn(-c2ccccc2)c2c1C(c1cn(-c3ccccc3)nc1-c1ccc(F)cc1)C1=C(NC(C)(c3cc(O)c(I)cc3Cl)NC1=O)O2 | 0.5 mg/mL | agar diffusion / agar |  | Mycobacterium phlei | zone | NCIM 2240 | 7.1 mm
CCOc1c(N2CCN(CC)CC2)c(F)cc2c(=O)c(C(=O)O)cn(C3CC3)c12 |  |  |  | Mycobacterium fortuitum | MIC | ATCC 6841 | 0.25 µg/mL
CO[C@H]1/C=C/O[C@@]2(C)Oc3c(C)c(O)c4c(O)c(c(/C=N/N5CCN(C6CCCC6)CC5)c(O)c4c3C2=O)NC(=O)/C(C)=C\C=C\[C@H](C)[C@H](O)[C@@H](C)[C@@H](O)[C@@H](C)[C@H](OC(C)=O)[C@@H]1C |  |  |  | Mycobacterium avium | Mean MIC | ATCC 25291 | >1 µg/mL
CC1CN(c2cc3c(cc2F)c(=O)c(C(=O)O)cn3C2CC2)CC(C)N1 |  |  |  | Mycobacterium avium complex | MIC90 | 14 strains | 1 µg/mL
N/N=C(\N)c1ccccn1 |  |  |  | Mycobacterium fortuitum | EC50 |  | >1000 µM
NCC[C@H](O)C(=O)N[C@@H]1C[C@H](N)[C@@H](O[C@H]2O[C@H](CN)[C@@H](O)[C@H](O)[C@H]2O)[C@H](O)[C@H]1O[C@H]1O[C@H](CO)[C@@H](O)[C@H](N)[C@H]1O |  |  |  | Mycobacterium marinum | MIC50 | 37 clinical isolates | 1.5 µg/mL
C[C@H]1COC2(CCN(c3nc(=O)c4cc(C(F)(F)F)cc(C(=O)O)c4s3)CC2)O1 |  | resazurin |  | Mycobacterium massiliense | MIC99 | 2005-0484 | >100 µg/mL
CCN1CCN(c2c(F)cc3c(=O)c(C(=O)O)cn(C4CC4)c3c2C(F)(F)F)CC1 |  |  |  | Mycobacterium fortuitum | MIC | ATCC 6841 | 1 µg/mL
Cc1nn(-c2ccccc2)c2c1C(c1cn(-c3ccccc3)nc1-c1ccc(F)cc1)C1=C(NC(C)(c3cc(O)c(Cl)c(O)c3)NC1=O)O2 | 1 mg/mL | agar diffusion / agar |  | Mycobacterium phlei | zone | NCIM 2240 | 2.5 mm
CN(C)c1ccc(O)c2c1C[C@H]1C[C@H]3[C@H](N(C)C)C(=O)C(C(N)=O)=C(O)[C@@]3(O)C(=O)C1=C2O |  |  |  | Mycobacterium marinum | MIC50 | 37 clinical isolates | 0.75 µg/mL
CNCC1CCN(c2c(F)cc3c(=O)c(C(=O)O)cn(C4CC4)c3c2Br)C1 |  |  |  | Mycobacterium fortuitum | MIC | ATCC 6841 | ≤0.03 µg/mL

The last 3 rows once more:

SMILES,dose,read by,setting,organism,measure,strain or isolate,value
Cc1nn(-c2ccccc2)c2c1C(c1cn(-c3ccccc3)nc1-c1ccc(F)cc1)C1=C(NC(C)(c3cc(O)c(Cl)c(O)c3)NC1=O)O2,1 mg/mL,agar diffusion / agar,,Mycobacterium phlei,zone,NCIM 2240,2.5 mm
CN(C)c1ccc(O)c2c1C[C@H]1C[C@H]3[C@H](N(C)C)C(=O)C(C(N)=O)=C(O)[C@@]3(O)C(=O)C1=C2O,,,,Mycobacterium marinum,MIC50,37 clinical isolates,0.75 µg/mL
CNCC1CCN(c2c(F)cc3c(=O)c(C(=O)O)cn(C4CC4)c3c2Br)C1,,,,Mycobacterium fortuitum,MIC,ATCC 6841,≤0.03 µg/mL